{"source": "paper PMC7181131", "about": "“N-Pyrazinoyl Substituted Amino Acids as Potential Antimycobacterial Agents—the Synthesis and Biological Evaluation of Enantiomers” (Molecules, 2020)", "note": "“And” between values parts separate entries of the source, which are not always exact repeats. Equal values may be shown once."}
{"test_system": "HepG2 cell line", "assay": "HepG2 cytotoxicity, CellTiter 96 (MTS) assay", "assay_type": "cell-based, human", "settings": "SI = IC50(µM)/MIC(µM); HepG2 IC50 vs Mtb MIC at pH 6"}
{"compound": "CCOC(=O)[C@H](CC(C)C)NC(=O)c1cnccn1", "note": "(racemic) [PC-DL-Leu-Et, ethyl (pyrazine-2-carbonyl)leucinate]", "SI pH 6": 13.4}
{"compound": "COC(=O)C(NC(=O)c1cnccn1)c1ccccc1", "note": "[PC-D/L-Pgl-Me, methyl 2-phenyL-2-(pyrazine-2-carboxamido)acetate]", "SI pH 6": "> 40"}
{"compound": "C[C@H](NC(=O)c1cnccn1)C(=O)O", "note": "[PC-L-Ala, (pyrazine-2-carbonyl)-L-alanine]", "SI pH 6": "≥ 0.2"}
{"compound": "CCOC(=O)[C@H](C)NC(=O)c1cnccn1", "note": "[PC-L-Ala-Et, ethyl (pyrazine-2-carbonyl)-L-alaninate]", "SI pH 6": "> 40 and > 57.1"}
{"compound": "COC(=O)[C@H](CCSC)NC(=O)c1cnccn1", "note": "[PC-L-Met-Me, methyl (pyrazine-2-carbonyl)-L-methioninate]", "SI pH 6": 6.9}
{"compound": "COC(=O)[C@H](COCc1ccccc1)NC(=O)c1cnccn1", "note": "[PC-L-OBn-Ser-Me, methyl O-benzyl-N-(pyrazine-2-carbonyl)-L-serinate]", "SI pH 6": 30.0}
{"compound": "COC(=O)[C@@H](NC(=O)c1cnccn1)[C@@H](C)OC(C)(C)C", "note": "[PC-L-OtBu-Thr-Me, methyl O-(tert-butyl)-N-(pyrazine-2-carbonyl)-L-threoninate]", "SI pH 6": 0.3}
{"compound": "CCOC(=O)[C@H](Cc1c[nH]c2ccccc12)NC(=O)c1cnccn1", "note": "[PC-L-Trp-Et, ethyl (pyrazine-2-carbonyl)-L-tryptophanate]", "SI pH 6": 1.2}
{"compound": "CCOC(=O)[C@H](Cc1ccc(O)cc1)NC(=O)c1cnccn1", "note": "[PC-L-Tyr-Et, ethyl (pyrazine-2-carbonyl)-L-tyrosinate]", "SI pH 6": 7.2}
{"compound": "NC(=O)c1cnccn1", "note": "[PZA, pyrazinamide, reference compound]", "SI pH 6": 302.9}
